Results on 5 molecules are retold here after US11814416B2, “Polypeptide capable of passing through blood-brain barrier” (SHENZHEN RUIJIAN BIOSCIENCE TECHNOLOGY LIMITED COMPANY, dated 2023).

The assay deals with Rat CaV2.2 channel (α1B splice variant e37a, auxiliary subunits α2δ1 and β3) (rat, UniProt Q02294). Put plainly: cell-based or functional assay.
As to CKGKGAKCSRLMYDCCTGSCRSGKCYGRKKRRQRRR [MVIIA-a], the “reduction of peak Ca2+ current (ICa) at 1 µM, whole-cell voltage clamp” value (“reduction of peak Ca2+ current (ICa)” for short) worked out at 89.5%.
Regarding CKGKGAKCSRLMYDCCTGSCRSGKCGGGYGRKKRRQRRR [MVIIA-d], the “reduction of peak Ca2+ current (ICa)” value was 84.3%.
CKGKGAKCSRLMYDCCTGSCRSGKCGYGRKKRRQRRR [MVIIA-b]: the “reduction of peak Ca2+ current (ICa)” value was determined as 91.7%.
To CKGKGAKCSRLMYDCCTGSCRSGKCGGYGRKKRRQRRR [MVIIA-c] belongs 98.8%; to CKGKGAKCSRLMYDCCTGSCRSGKC [MVIIA (ziconotide)], 98.2%.
